# Test results taken from paper PMC4624681, “TIM-1 acts a dual-attachment receptor for Ebolavirus by interacting directly with viral GP and the PS on the viral envelope” (Protein & Cell, 2015).
# Biological target: Bundibugyo GP (1–308) with a Fc tag (Ebolavirus, Bundibugyo strain, UniProt B8XCN0)
binder,measurement,value
Ig V domain of human T-cell immunoglobulin and mucin domain protein 1 (hTIM-1) (domain or fragment) VKVGGEAGPSVTLPCHYSGAVTSMCWNRGSCSLFTCQNGIVWTNGTHVTYRKDTRYKLLGDLSRRDVSLTIENTAVSDSGVYCCRVEHRGWFNDMKITVSLEIVPP,Kd,~4.9 µM
